Columns and labels:
[1] = tested on: human microvascular endothelial cells (HMEC-1); assay: Cytotoxicity assay on HMEC-1 cell line; type: cell-based; conditions: for SI = IC50 HMEC-1/IC50 P. falciparum strain, D10: HMEC-1 vs D10; for SI = IC50 HMEC-1/IC50 P. falciparum strain, W2: HMEC-1 vs W2
[2] = tested on: embryonic murine fibroblasts (NIH-3T3 cell line); assay: Cytotoxicity on NIH-3T3 cell line (previous work); type: cell-based; conditions: NIH-3T3 values from ref 8; for SI = IC50 NIH-3T3/IC50 P. falciparum strain, D10: NIH-3T3 vs D10; for SI = IC50 NIH-3T3/IC50 P. falciparum strain, W2: NIH-3T3 vs W2

Structure (SMILES) | SI = IC50 HMEC-1/IC50 P. falciparum strain, D10 [1] | SI = IC50 HMEC-1/IC50 P. falciparum strain, W2 [1] | SI = IC50 NIH-3T3/IC50 P. falciparum strain, D10 [2] | SI = IC50 NIH-3T3/IC50 P. falciparum strain, W2 [2]
COC1=C(Cc2ccccc2)C(=O)C2=C(NCCS2(=O)=O)C1=O [Compound 22] | 29.3 | 25.2 | 147.7 | 126.5
COC1=C(Cc2ccc(Cl)cc2)C(=O)C2=C(NCCS2(=O)=O)C1=O [Compound 24] | 5.2 | 4.5 | 48.5 | 41.6
COC1=C(Cc2ccc(C(F)(F)F)cc2)C(=O)C2=C(NCCS2(=O)=O)C1=O [Compound 25] | 4.0 | 4.1 | 11.0 | 11.1
COC1=C(Cc2ccc(OC)cc2)C(=O)C2=C(NCCS2(=O)=O)C1=O [Compound 26] | 14.8 | 14.7 |  | 
COC1=C(Cc2ccc(OC(F)(F)F)cc2)C(=O)C2=C(NCCS2(=O)=O)C1=O [Compound 27] | 3.2 | 4.4 | 32.6 | 45.0

— publication PMC7180939, “Antiplasmodial Activity of p-Substituted Benzyl Thiazinoquinone Derivatives and Their Potential against Parasitic Infections” (Molecules, 2020)
